Results of unrelated studies side by side (data: NIAID ChemDB).

Shared fields: whole-cell or culture tests; agent: HIV-1; endpoint: inhibition

Two numbers with a dash give a range or band.

compound | strain or isolate | mutations | method | cell line | conditions | dose | value
CC1(C)[C@@H](O[C@H]2O[C@H](C(=O)O)[C@@H](O)[C@H](O)[C@H]2O[C@@H]2O[C@H](C(=O)O)[C@@H](O)[C@H](O)[C@H]2O)CC[C@]2(C)[C@H]3C(=O)C=C4[C@@H]5C[C@@](C)(C(=O)O)CC[C@]5(C)CC[C@@]4(C)[C@]3(C)CC[C@@H]12 | IIIB | - | antigen | MT-4 | - | 600 µM | 98.6%
CC(C)[C@H](NC(=O)[C@H](CO)NC(=O)[C@@H](N)CSSCC(=O)O)C(=O)N[C@H](C(=O)N[C@@H](CSSCC(=O)O)C(=O)NCC(=O)O)[C@@H](C)O | IIIB | - | p24 | PBMC(PHA STIM.) + PBMC | - | 0.66 µM | 58%
NC1=NS(=O)(=O)N(Cc2ccccc2)c2c1ncn2[C@@H]1CS[C@@H](CO)O1 | RF | - | - | MT-4 | - | 100 µg/mL | 0%
C[C@H](NC(=O)CCCCCNC(=O)[C@]12CCC(C)(C)C[C@H]1C1=CC[C@@H]3[C@@]4(C)C[C@@H](O)[C@H](O)C(C)(C)[C@@H]4CC[C@@]3(C)[C@]1(C)CC2)C(=O)O | pNL4-3 | - | p24 / ELISA | MT-2 | - | 10 µM | -7%
N=C1Sc2ccccc2C2=NCCCN12 | 92HT599 | - | β-galactosidase | PBMC | - | 1.92 µM | 90%
O=C(O)c1c[nH]c2c(C(=O)c3ccccc3)cccc2c1=O | NL4-3 | - | p24 / ELISA | HeLa | - | 100 µM | <10%
O=C(C(=O)N1CCN(C(=O)c2ccccn2)CC1)c1c[nH]c2cccc(F)c12 | - | - | luciferase | HeLa + HELA CD4+/CCR5 | - | 10 µM | >98%
Cc1c2ccnc(Cl)c2cc2c3cn(C)ccc-3nc12 | - | - | syncytia | MT-2 | - | 0.1 µM | 5%
CCOC(=O)/C=C/c1ccc(OC(=O)CCC(=O)Oc2c(C)c(C)c3c(c2C)CC[C@@](C)(CCC[C@H](C)CCC[C@H](C)CCCC(C)C)O3)cc1 | - | - | - | U1/HIV-1 (TNF-alpha stimulated) + U1 | - | 10 µM | 63%
N#CC1C=Cc2c(ccc3ccccc23)N1C(=O)c1ccc(Cl)cc1 | IIIB | - | syncytia | MOLT-3 | - | 50 µM | 0%
COC(=O)c1cccc2c(C(=O)C(=O)N3CCN(C(=O)c4ccccc4)CC3CC(C)C)c[nH]c12 | - | - | luciferase | HeLa + HELA CD4+/CCR5 | - | 10 µM | 81%
c1cc(CNCCCNC2CCCCC2)cc(CNc2nc(N3CCNCC3)nc3nc[nH]c23)c1 | IIIB | - | luciferase | TZM-bl | - | 10 µM | 12%
Nc1ncnc2c1ncn2COCCOP(=O)([O-])O[C@@H]1C[C@@H](COP(=O)([O-])O[C@@H]2C[C@@H](COP(=O)([O-])O[C@@H]3C[C@@H](CO)O[C@H]3n3cnc4c(N)[n+](Cc5ccccc5)cnc43)O[C@H]2n2cnc3c(N)ncnc32)O[C@H]1n1cnc2c(N)ncnc21 | - | - | RT activity | SupT1 + Sup-T1 | - | 100 µM | 67%
Nc1ccn([C@H]2CC[C@@H](CO)O2)c(=O)n1 | LAV | - | RT activity | MT-2 | - | 1 µM | 93%
CCOc1ccc(Br)cc1-c1oc2ccccc2c(=O)c1O | BaL | - | p24 / ELISA | PM1 | - | 5 µM | 0%
N#Cc1cc(Cl)cc(Oc2c(Cl)ccc3c2cnn3Cc2[nH]nc3ncccc23)c1 | - | K103N | - | MT-4 | - | 0.015 µM | >95%
Cc1ccc(C)c(NS(=O)(=O)c2cc(C(=O)NCc3ccccn3)ccc2Cl)c1 | Clinical isolate | Raltegravir-resistant | p24 | C8166 | - | 1.25 µM | 90%
C[C@H]1[C@H](O)[C@@H](C)/C=C/C=C/C=C/C=C/C=C/C=C/C=C/[C@H](O[C@@H]2O[C@H](C)[C@@H](O)[C@H](N)[C@@H]2O)C[C@@H]2O[C@](O)(C[C@@H](O)C[C@@H](O)CC[C@H](O)[C@@H](O)C[C@@H](O)CC(=O)O[C@H]1C)C[C@H](O)[C@H]2C(=O)O | CMU06 CLADE E X4 (SI) | - | p24 / RT activity | PBMC | - | 3.7 µM | 90%
Cc1nnc(NC(=O)NCCc2ccccc2)s1 | - | - | cytopathic effect / XTT | MT-4 | - | 1 µg/mL | 3%
CC1(C)CC[C@]2(C(=O)NCCCC(=O)NCC(=O)O)CC[C@]3(C)C(=CC[C@@H]4[C@@]5(C)C[C@@H](O)[C@H](O)C(C)(C)[C@@H]5CC[C@]43C)[C@@H]2C1 | pNL4-3 | - | p24 / ELISA | MT-2 | - | 10 µM | -12.3%
Nc1ncnc2c1ncn2COCCOP(=O)(O)O[C@@H]1C[C@@H](COP(=O)(O)O[C@@H]2C[C@@H](COP(=O)(O)O[C@@H]3C[C@@H](CO)O[C@H]3n3cnc4c(NCc5ccccc5)ncnc43)O[C@H]2n2cnc3c(N)ncnc32)O[C@H]1n1cnc2c(N)ncnc21 | - | - | syncytia | SupT1 + Sup-T1 | - | 0.1 µM | 44%
COC(=O)c1cccc2c(C(=O)C(=O)N3CCN(C(=O)c4ccccc4)C(CC(C)C)C3)c[nH]c12 | - | - | luciferase | HeLa + HELA CD4+/CCR5 | - | 10 µM | 77%
N#CC1=C(N)N2C(=C(C#N)C1c1ccc(Cl)cc1)Oc1ccccc12 | - | - | cytopathic effect / XTT | CEM | - | 0.635 µM | 4.27%
O=C(NCCc1ccccc1)Nc1cncc(Cl)n1 | - | - | cytopathic effect / XTT | MT-4 | - | 1 µg/mL | 37–94%
CCCCCCCCCCCCCCCC(=O)OC[C@H]1O[C@@H](n2cnc3c(N)ncnc32)[C@@H]1CO | - | - | antigen | MT-4 | - | 10 µg/mL | 97%
CCCCOC(=O)N1C=CC(C#N)C(C(C)=O)=C1 | IIIB | - | syncytia | MOLT-3 | - | 50 µM | 0%
NCCSSCCN | BaL | - | p24 | Macrophage | - | 50 µM | 60%
N#CC1C=Cc2c(ccc3ccccc23)N1C(=O)Oc1ccc(Cl)cc1 | IIIB | - | syncytia | MOLT-3 | - | 50 µM | 0%
O=C(O)c1cn(Cc2cccc(F)c2)c2c(ccc3ccccc32)c1=O | NL4-3 | - | p24 / ELISA | HeLa | - | 100 µM | <10%
O=P(O)(O)OP(=O)(O)OP(=O)(O)OP(=O)(O)O | IIIB | - | cytopathic effect / MTT | CEM | - | 100 µg/mL | 37%
COC(=O)CCCNC(=O)[C@]12CCC(C)(C)C[C@H]1C1=CC[C@@H]3[C@@]4(C)C[C@@H](O)[C@H](O)C(C)(C)[C@@H]4CC[C@@]3(C)[C@]1(C)CC2 | pNL4-3 | - | p24 / ELISA | MT-2 | - | 10 µM | 67.5%
N=C1Sc2ccccc2C2=NCCCN12 | RU132 | - | MTS | PBMC | - | 0.53 µM | 90%
CC[C@H](CO)Nc1nc(NCc2ccc(-c3ccccc3)cc2)n2ncc(C(C)C)c2n1 | - | - | trypan blue | ACH2 | - | 0.05 µM | 1–5%
S=C(NCCc1ccccc1)N1CCCc2ccccc21 | - | - | cytopathic effect / XTT | MT-4 | - | 1 µg/mL | 0%
CCCCNC(=S)C(C#N)c1nc2ccccc2o1 | - | - | cytopathic effect / XTT | CEM | - | 20 µM | 36.61%
O=C(Cc1ccccc1)Nn1c(-c2ccccc2)nc2ccccc2c1=O | RF | - | cytopathic effect / XTT | CEM + CEM-SS | - | 200 µM | 86.18%
O=C(NCCc1ccccc1)Nc1nc2ccccc2s1 | - | - | RT activity | MT-4 | - | 100 µg/mL | 95%
NC1=NS(=O)(=O)N(Cc2ccccc2)c2ncn([C@@H]3CS[C@@H](CO)O3)c21 | RF | - | - | MT-4 | - | 100 µg/mL | 0%
C=CC(C)(/C=C\c1ccc(O)cc1)c1ccc(O)cc1.NC(=O)NO | 6366 | - | p24 | Macrophage | - | 0.00054 µM | 90%
Nc1nc(Cl)c2ncn([C@@H]3O[C@H](CO)C[C@@H]3F)c2n1 | LAI | - | cytopathic effect / XTT | ATH-8 + ATH8 | - | 50 µM | 61%
N#CC1=C(N)N2C(=C(C#N)C1c1ccccc1)Oc1ccccc12 | - | - | cytopathic effect / XTT | CEM | - | 2.01 µM | 4.67%
CCN(CC)C(=S)S | LAV | - | RT activity | H9 | - | 0.0000075 µg/mL | 30%
Fc1cccc(C2SCc3nc4cc5ccccc5cc4n32)c1 | RF | - | - | CEM + CEM-SS | - | 200 µM | 18.5%
CN1CCN(C(=S)NCCc2ccccc2)CC1 | - | - | cytopathic effect / XTT | MT-4 | - | 100 µg/mL | 0%
CC1(C)CC[C@]2(C(=O)NCCCCCCCCCCC(=O)O)CC[C@]3(C)C(=CC[C@@H]4[C@@]5(C)C[C@@H](O)[C@H](O)C(C)(C)[C@@H]5CC[C@]43C)[C@@H]2C1 | pNL4-3 | - | p24 / ELISA | MT-2 | - | 25 µM | 78.5%
CC(=O)C1=CC=CN(C(=O)Oc2ccccc2)C1C#N | IIIB | - | syncytia | MOLT-3 | - | 50 µM | 0%
O=C1C=CN([C@@H]2CS[C@@H](CO)O2)S(=O)(=O)N1 | RF | - | - | MT-4 | - | 100 µg/mL | 0%
NCCSSCCN | IIIB | - | p24 | PBL | - | 200 µM | 100%
O=C(C(=O)N1CCN(C(=O)c2ccccc2)CC1)c1c[nH]c2c(F)cccc12 | - | - | luciferase | HeLa + HELA CD4+/CCR5 | - | 10 µM | >98%
[N-]=[N+]=NC[C@H]1[C@H](n2cnc3c(N)ncnc32)O[C@@H]1CO | - | - | antigen | MT-4 | - | 100 µg/mL | >99.9%
CCCCN1C(=O)[C@@H](Cc2ccccc2)NC1=S | - | - | cytopathic effect / XTT | MT-4 | - | 1 µg/mL | 0–5%
NC(=O)NO | - | - | RT activity | H9 | - | 200 µM | 72.8%
Cc1[nH]c2ccccc2c(=O)c1C(=O)O | NL4-3 | - | p24 / ELISA | HeLa | - | 100 µM | 26%
CC(C)[C@H](NC(=O)[C@H](CO)NC(=O)[C@H](CS)NC(=O)CCC(=O)NCCCOCCOCCCN)C(=O)N[C@H](C(=O)N[C@@H](CS)C(=O)NCC(=O)O)[C@@H](C)O | IIIB | - | p24 | PBMC(PHA STIM.) + PBMC | - | 1.32 µM | 100%
N#C/C(=C1\SC(=O)CN1c1ccccc1)c1nc2ccccc2o1 | - | - | cytopathic effect / XTT | CEM | - | 6.34 µM | 4.26%
O=C(C(=O)N1CCN(C(=O)c2ccccc2F)CC1)c1c[nH]c2ccccc12 | BRU | - | RT activity | MT-2 | - | 10 µM | >98%
COc1ccc(C2C(C#N)=C(N)N3C(=C2C#N)Oc2ccccc23)cc1 | - | - | cytopathic effect / XTT | CEM | - | 20 µM | 5.78%
Cc1ccc2[nH]cc(C(=O)C(=O)N3CCN(C(=O)c4ccccc4)CC3)c2c1 | BRU | - | RT activity | MT-2 | - | 10 µM | 49.5%
Nc1nc2c(ncn2[C@@H]2O[C@H](CO)C[C@@H]2F)c(=O)[nH]1 | LAI | - | cytopathic effect / XTT | ATH-8 + ATH8 | - | 100 µM | 66%
Fc1cccc(F)c1C1SCc2nc3cc4ccccc4cc3n21 | RF | - | - | CEM + CEM-SS | - | 0.63 µM | 4.49%
CC1/C=C/C=C/C=C/C=C/C=C/C=C/C=C/C(OC2OC(C)C(O)C(N)C2O)CC(O)C(C(=O)O)C(O)CC(=O)CC(O)CC(O)CC(O)CC(=O)CCCC(=O)CC(=O)OC1 | IIIB | - | p24 / antigen | H9 | - | 0.1 µg/mL | 14%
N#Cc1cc(Cl)cc(Oc2c(Cl)ccc3c2nnn3Cc2[nH]nc3nc(N)ccc23)c1 | - | - | - | MT-4 | 50% human serum | 0.036 µM | >95%
Nc1ncnc2c1ncn2COCCOP(=O)([O-])O[C@@H]1[C@H](O)[C@@H](COP(=O)([O-])O[C@@H]2[C@H](O)[C@@H](CO)O[C@H]2n2cnc3c(N)ncnc32)O[C@H]1n1cnc2c(N)ncnc21 | - | - | RT activity | SupT1 + Sup-T1 | - | 300 µM | 63%
Fc1ccccc1C1SCc2nc3cc4ccccc4cc3n21 | RF | - | - | CEM + CEM-SS | - | 200 µM | 2.59%
COc1ccc(OC)c2c(C(=O)C(=O)N3CCN(C(=O)c4ccccc4)CC3)c[nH]c12 | - | - | luciferase | HeLa + HELA CD4+/CCR5 | - | 10 µM | >98%
O=C(O)c1c[nH]c2c3c(ccc2c1=O)CCCC3 | NL4-3 | - | p24 / ELISA | HeLa | - | 100 µM | 84%
CO[C@H]1C[C@@H]2CC[C@@H](C)[C@@](O)(O2)C(=O)C(=O)N2CCCC[C@H]2C(=O)O[C@H]([C@H](C)C[C@@H]2CC[C@@H](O)[C@H](OC)C2)CC(=O)[C@H](C)/C=C(\C)[C@@H](O)[C@@H](OC)C(=O)[C@H](C)C[C@H](C)/C=C/C=C/C=C/1C | ADA R5 | - | p24 | Macrophage + Monocytes/macrophages | - | 0.00001 µM | 64%
CC1(C)CC[C@]2(C(=O)NCCCC(=O)O)CC[C@]3(C)C(=CC[C@@H]4[C@@]5(C)C[C@@H](O)[C@H](O)C(C)(C)[C@@H]5CC[C@]43C)[C@@H]2C1 | pNL4-3 | - | p24 / ELISA | MT-2 | - | 25 µM | 6.2%
O=c1[nH]cnc2c1ncn2[C@@H]1O[C@H](CO)[C@H]1COS(=O)(=O)O | - | - | antigen | MT-4 | - | 3 µg/mL | 40%
Cc1ccc2c(=O)c(C(=O)O)c[nH]c2c1C | NL4-3 | - | p24 / ELISA | HeLa | - | 100 µM | <10%
Nc1ncnc2c1ncn2[C@@H]1O[C@H](CO)[C@@H]1O | - | - | antigen | MT-4 | - | 100 µg/mL | >99.9%
N#Cc1cc(Cl)cc(Oc2c(Cl)ccc3c2nnn3Cc2[nH]nc3ncccc23)c1 | - | Y181C | - | MT-4 | - | 0.018 µM | >95%
O=C(NCCc1ccccc1)Nc1nc(C(F)(F)F)cs1 | - | - | RT activity | MT-4 | - | 100 µg/mL | 97%
Nc1nc(NC2CC2)c2ncn([C@H]3C=C[C@@H](CO)C3)c2n1 | SF162 | - | p24 | MDM + PBMC | - | 0.5 µM | 40%
Nc1ncnc2c1ncn2[C@H]1C[C@@H](CO)O1 | - | - | antigen | MT-4 | - | 100 µg/mL | >99.9%
O=C(NCCc1ccccc1)Nc1nc(-c2ccc(Cl)cc2)cs1 | - | - | cytopathic effect / XTT | MT-4 | - | 10 µg/mL | 0%

Blank or dashed fields: not listed here. Percent inhibition refers to the dose given; in toxicity tests it is the harm to the cells. Conditions beyond the fields shown may differ between rows.